Anti-infective test results gathered from many reports (values: NIAID ChemDB through PubChem).

All rows: growth or infection tests; species: HIV-1; read-out: inhibition

Conditions beyond the fields shown may differ between rows. Percent inhibition refers to the dose given; in toxicity tests it is the harm to the cells. An empty or dashed field is not shown.

SMILES	dose	cell line	method	strain or isolate	setting	value
CN=C1CN=C(c2ccc[nH]2)c2cc(Cl)ccc2N1	1 µM	HT4 + HT4-6C	syncytia	LAV-1	-	68%
COc1cc(O)c2c(c1)C(=O)c1c(cc3c(c1O)-c1c(cc(C)c(C(=O)N[C@H](C)C(=O)O)c1O)[C@H](O)[C@H]3O)C2=O	10 µg/mL	MT-4	antigen	IIIB	-	<10%
Nc1nc(NC2CC2)c2ncn([C@H]3C=C[C@@H](CO)C3)c2n1	4 µM	PBL (resting) + PBL	RT activity	BZ X4	-	99%
Nc1ncnc2c1ncn2[C@H]1CC[C@@H](CO)O1	1 µM	U-937	virus yield	LAV-1	-	90%
C/C=C(\C)C(=O)O[C@@H]1[C@@H](OC(=O)c2ccccc2)[C@H]2[C@@H](CC=C3C[C@@H](O[C@H]4C[C@@H](OC)[C@H](O[C@@H]5OC(C)[C@@H](O[C@@H]6OC(CO)[C@@H](O)[C@H](O)C6O)[C@H](OC)C5O)C(C)O4)CC[C@@]32C)[C@@]2(O)CC[C@H](C(C)=O)[C@@]12C	30 µM	SupT1	luciferase	-	pseudotyped	20.06%
COC(=O)[C@@H]1C2CCC(C[C@@H]1OC(=O)c1ccccc1)N2C	50 µg/mL	U1	p24	IIIB	-	<0%
O=C(O)P(=O)(O)O	16 µM	PBL	RT activity	IIIB	14 d	67%
Cc1ccnc2c1NC(=O)c1cccnc1N2C1CC1	0.0316 µM	HT4 + HT4-6C	syncytia	LAV-1	-	51%
NC(N)=NCCC[C@@H](C=O)NC(=O)CNC(=O)[C@@H]1CCCN1	250 µg/mL	H9	p24	IIIB	-	0%
COc1cc(O)c2c(c1)C(=O)c1c(cc3c(c1O)-c1c(cc(C)c(C(=O)N[C@H](C)C(=O)O)c1O)[C@H](O[C@@H]1O[C@H](C)[C@H](O)[C@H](O[C@@H]4OC[C@@H](O)[C@H](O)[C@H]4O)[C@H]1O)[C@H]3O)C2=O	10 µg/mL	MT-4	antigen	IIIB	-	77%
O=c1ccc2cc3ccoc3cc2o1	50 µM	MT-2	luciferase	NL4-3 Recombinant VSV-pseudotyped	-	16%
Nc1ccn([C@H]2CC[C@@H](CO)O2)c(=O)n1	0.2 µM	PBL (activated) + PBL	RT activity	SF162 R5	-	97%
Cc1cn([C@H]2C[C@H](N=[N+]=[N-])[C@@H](COP(=O)(O)OC[C@H]3OC(O)[C@@H](O)[C@@H](O)[C@@H]3O)O2)c(=O)[nH]c1=O	1 µM	U-937	RT activity	LAV-Bru	7 d	0%
Nc1ccn([C@@H]2CS[C@H](CO)O2)c(=O)n1	5 µM	PBL (activated) + PBL	RT activity	BZ X4	-	100%
NCC(=O)N1CCC[C@H]1C=O	25 µg/mL	H9	p24	IIIB	-	62.1%
Cc1cn([C@H]2C[C@H](N=[N+]=[N-])[C@@H](CO)O2)c(=O)[nH]c1=O	5 µM	CEM	RT activity	LAV-Bru	7 d	96%
CC(C)Nc1cccnc1N1CCN(C(=O)c2cc3ccccc3[nH]2)CC1	1 µM	PBMC	MTT	Seropositive clinical isolate D	-	100%
C/C(=C(/CCO)SS/C(CCO)=C(\C)N(C=O)Cc1cnc(C)nc1N)N(C=O)Cc1cnc(C)nc1N	500 µM	MOLT-4/HIV-1(IIIB) + MOLT-4	p24	IIIB	-	97%
CCC[C@@]1(CCc2ccccc2)CC(O)=C([C@H](CC)c2cccc(NS(=O)(=O)c3ccc(C(F)(F)F)cn3)c2)C(=O)O1	0.16 µM	PBMC	p24	Isolate N. Amer 7	-	90%
COc1cc(O)c2c(=O)oc3cc(O)cc(C)c3c2c1	180 µM	PBMC	p24 / ELISA	NL4-3	5 d	100%
CO[C@@H]1C(O)[C@H](O[C@@H]2C(C)O[C@@H](O[C@H]3CC[C@@]4(C)[C@@H](CC[C@@H]5[C@@H]4[C@H](OC(C)=O)[C@@H](OC(=O)c4ccccc4)[C@]4(C)[C@@H](C(C)=O)CC[C@]54O)C3)C[C@H]2OC)OC(C)[C@H]1O[C@@H]1OC(CO)[C@@H](O[C@@H]2OC(CO)[C@@H](O)[C@H](O)C2O)[C@H](O)C1O	30 µM	SupT1	luciferase	-	pseudotyped	36.87%
COc1cc(O)c2c(c1)C(=O)c1c(cc3c(c1O)-c1c(cc(C)c(C(=O)N[C@H](C)C(=O)O)c1O)[C@H](O[C@@H]1O[C@H](C)[C@H](N)[C@H](O[C@@H]4OC[C@@H](O)[C@H](O)[C@@H]4O)[C@H]1O)[C@H]3O)C2=O	3 µg/mL	MOLT-4	syncytia	IIIB	-	34%
O=S(=O)(O)c1cc(N=C=S)ccc1/C=C/c1ccc(N=C=S)cc1S(=O)(=O)O	25 µg/mL	JM	p24	GB8	-	93.6%
COc1ccc(CN[C@@H](C(=O)N[C@H]2c3ccccc3C[C@H]2O)[C@H](O)[C@H](Cc2ccccc2)NC(=O)[C@@H](NC(=O)OCc2ccccc2)C(C)(C)C)cc1	0.074 µM	Primary T4 cells + T4	p24	IIIB	-	90%
O=C1N(Cc2ccc(CO)cc2)[C@H](Cc2ccccc2)[C@H](O)[C@@H](O)[C@@H](Cc2ccccc2)N1Cc1ccc(CO)cc1	0.16 µM	PBMC	p24	Clinical isolate D3	-	90%
Oc1ccc(/C=C/c2cc(O)cc(O)c2)cc1	5 µM	PBMC	p24	ddI-resistant (RT K65R/L74V/M184V)	-	20%
OC[C@H]1O[C@@H](n2cnc3cc(Cl)c(Cl)cc32)[C@H](O)[C@@H]1O	50 µM	MT-2	luciferase	NL4-3 Recombinant VSV-pseudotyped	-	76%
NCC(=O)N1CCC[C@H]1C(=O)NCC(=O)N[C@H](C=O)CCCN=C(N)N	25 µg/mL	H9	syncytia	IIIB	-	0%
COc1cc(O)c2c(c1)C(=O)c1c(cc3c(c1O)-c1c(cc(C)c(C(=O)N[C@H](C)C(=O)O)c1O)[C@H](O[C@@H]1O[C@H](C)[C@H](O)[C@H](O)[C@H]1O)[C@H]3O)C2=O	30 µg/mL	MT-4	antigen	IIIB	-	40%
Cc1cn([C@H]2C[C@H](N=[N+]=[N-])[C@@H](CO)O2)c(=O)[nH]c1=O	0.1 µM	U1	p24	-	-	45.5%
COC(=O)[C@@H](C)NC(=O)c1c(C)cc2c(c1O)-c1c(cc3c(c1O)C(=O)c1cc(OC)cc(O)c1C3=O)[C@H](O)[C@H]2O[C@@H]1O[C@H](C)[C@H](N)[C@H](O[C@@H]2OC[C@@H](O)[C@H](O)[C@H]2O)[C@H]1O	30 µg/mL	MOLT-4	syncytia	IIIB	-	100%
NC(N)=NCCC[C@H](N)C(=O)NCC(=O)N1CCC[C@H]1C(=O)NCC=O	25 µg/mL	H9	syncytia	IIIB	-	50%
CC(C)[C@H](NC(=O)c1ccc2ccccc2n1)C(=O)N[C@@H](Cc1ccccc1)[C@H](O)CN1CC[C@@H](OCc2ccncc2)C[C@H]1C(=O)NC(C)(C)C	0.031 µM	PBMC	p24	UHC-1	-	90%
C/C=C(\C)C(=O)O[C@@H]1[C@@H](OC(=O)/C(C)=C/C)[C@]2(C)[C@@H](C(C)=O)CC[C@]2(O)[C@]2(O)CC[C@H]3C[C@@H](O[C@H]4C[C@@H](OC)[C@H](O[C@@H]5OC(C)[C@@H](O[C@@H]6OC(CO)[C@@H](O[C@@H]7OC(CO)[C@@H](O)[C@H](O)C7O)[C@H](O)C6O)[C@H](OC)C5O)C(C)O4)CC[C@]3(C)[C@@H]12	30 µM	SupT1	luciferase	-	pseudotyped	39.2%
c1cc(CN2CCCNCCNCCCNCC2)ccc1CN1CCCNCCNCCCNCC1	0.5 µM	PBMC	p24	92US714 CLADE B R5	-	0%
C/C=C(\C)C(=O)O[C@@H]1[C@@H](OC(=O)c2ccccc2)[C@@H]2[C@@]3(C)CC[C@H](O[C@H]4C[C@@H](OC)[C@H](O[C@@H]5OC(C)[C@@H](O[C@@H]6OC(CO)[C@@H](O[C@@H]7OC(CO)[C@@H](O)[C@H](O)C7O)[C@H](O)C6O)[C@H](OC)C5O)C(C)O4)CC3=CC[C@@]2(O)[C@@]2(O)CC[C@H](C(C)=O)[C@@]12C	30 µM	SupT1	luciferase	-	pseudotyped	41.32%
NCC(=O)N1CCC[C@H]1C(=O)NCC(=O)NCC=O	250 µg/mL	H9	syncytia	IIIB	-	80%
CCCCCCCCCCCCCCCCOP(=O)(OC[C@H]1OC(O)[C@H](O)[C@@H](O)[C@@H]1O)OC[C@H]1O[C@@H](n2cc(C)c(=O)[nH]c2=O)C[C@@H]1N=[N+]=[N-]	0.2 µM	CEM	RT activity	LAV-Bru	22 d	0%

Repeating the first 4 entries:

SMILES,dose,cell line,method,strain or isolate,setting,value
CN=C1CN=C(c2ccc[nH]2)c2cc(Cl)ccc2N1,1 µM,HT4 + HT4-6C,syncytia,LAV-1,-,68%
COc1cc(O)c2c(c1)C(=O)c1c(cc3c(c1O)-c1c(cc(C)c(C(=O)N[C@H](C)C(=O)O)c1O)[C@H](O)[C@H]3O)C2=O,10 µg/mL,MT-4,antigen,IIIB,-,<10%
Nc1nc(NC2CC2)c2ncn([C@H]3C=C[C@@H](CO)C3)c2n1,4 µM,PBL (resting) + PBL,RT activity,BZ X4,-,99%
Nc1ncnc2c1ncn2[C@H]1CC[C@@H](CO)O1,1 µM,U-937,virus yield,LAV-1,-,90%